Results of unrelated studies side by side (data: NIAID ChemDB).

All rows: growth or infection tests; species: Hepatitis C virus; cells: Huh7; read by: replicon; read-out: EC50

ECn is the concentration giving n% inhibition of infection, replication or growth. Rows are shuffled and stem from different studies. a–b is a range or a potency band.

Cc1cccc(S(=O)(=O)Oc2ccccc2/C=N/NC(=O)Cc2ccccc2)c1 ; result: >50 µM
CCNc1cc2oc(-c3ccc(F)cc3)c(C(=O)NC)c2cc1OCCCBr ; result: <1 µM
O=C(Cc1ccccc1)N/N=C/c1ccccc1OS(=O)(=O)c1cc(Cl)ccc1Cl ; result: >50 µM
C[C@@H](NC(=O)OCc1ccccc1)C(=O)Nc1ccc(C2SC(=Nc3ccc(F)c(C(F)(F)F)c3)N(Cc3ccco3)C2=O)cc1 ; result: 1–5 µM
O=C(NS(=O)(=O)c1ccccc1)c1ccc2c(C3CCCCC3)c3n(c2c1)C[C@@H](O)[C@@H](O)c1ncccc1-3 ; result: 1–10 µM
CNC(=O)c1c(-c2ccccc2)oc2ccc(OC)c(C)c12 ; result: >30 µM
C[C@H](NC(=O)OCc1ccccc1)C(=O)Nc1ccc(C2SC3=Nc4ccccc4CN3C2=O)cc1 ; result: 1–5 µM
COc1cccc(CC(=O)N/N=C/c2ccccc2S(=O)(=O)c2ccc(C)cc2)c1 ; result: 5–50 µM
CNC(=O)c1c(-c2ccc(F)cc2)oc2cc(C(C)=O)c(O)cc12 ; result: <10 µM
C/C(=N\NC(=O)Cc1cccc(Cl)c1)c1ccccc1OS(=O)(=O)c1ccc(C(F)(F)F)cc1 ; result: >50 µM
CNC(=O)c1c(-c2ccc(F)cc2)oc2cc(C(C)N(C)S(C)(=O)=O)c(OC)cc12 ; result: <1 µM
CN(C)S(=O)(=O)NC(=O)c1ccc2c(C3CCCCC3)c3n(c2c1)CC(C(=O)N1CCOCC1)=Cc1ccc(Cl)cc1-3 ; result: 1–10 µM
O=C(Cc1cccc(F)c1)N/N=C/c1ccccc1OS(=O)(=O)c1ccc(C(F)(F)F)cc1 ; result: <5 µM
CNC(=O)c1c(-c2ccc(F)cc2)oc2cc(N3CCOCC3)c(OCc3cc(C)on3)cc12 ; result: <1 µM
COC(=O)/C=C\c1ccc(NC(=O)C2(NC(=O)c3ccc4c(C5CCCCC5)c5n(c4c3)CCCc3sc(C)nc3-5)CCCC2)cc1 ; result: >10 µM
C[C@@H](C(=O)N1CCC[C@@H]1C(=O)Nc1ccc(C2SC(=Nc3ccc(N4CCOCC4)cc3)N(Cc3ccccn3)C2=O)cc1)c1ccccc1 ; result: <0.1 µM
COC(=O)c1ccc2c(C3CCCCC3)c3n(c2c1)C=C(C#N)Cc1ccccc1-3 ; result: 0.01–1 µM
C[C@@H](NC(=O)OCc1ccccc1)C(=O)Nc1ccc(C2SC(=Nc3ccc(N4CCOCC4)cc3)N(Cc3cccnc3)C2=O)cc1 ; result: 0.1–1 µM
CNC(=O)c1cc2oc(-c3ccc(F)cc3)c(C(=O)O)c2cc1OC(C)C ; result: >30 µM
O=C(O)c1ccc2c(C3CCCCC3)c3n(c2c1)C/C(=N/O)Cc1ccccc1-3 ; result: 1–10 µM
CNC(=O)c1c(-c2ccc(F)cc2)oc2ccc(OC(F)F)cc12 ; result: <10 µM
CN(C)S(=O)(=O)NC(=O)c1ccc2c(C3CCCCC3)c3n(c2c1)CC(C(=O)N1CCOCC1)=Cc1ccccc1-3 ; result: 0.01–1 µM
CNC(=O)c1c(-c2ccc(F)cc2)oc2cc(N(C)S(C)(=O)=O)c(OCc3cccc(C(=O)O)c3)cc12 ; result: <1 µM
CN(C)C(=O)C1Cc2ccccc2-c2c(C3CCCCC3)c3ccc(C(=O)O)cc3n2C1 ; result: 0.01–1 µM

Repeating the final 2 entries:

| compound | result |
|---|---|
| CNC(=O)c1c(-c2ccc(F)cc2)oc2cc(N(C)S(C)(=O)=O)c(OCc3cccc(C(=O)O)c3)cc12 | <1 µM |
| CN(C)C(=O)C1Cc2ccccc2-c2c(C3CCCCC3)c3ccc(C(=O)O)cc3n2C1 | 0.01–1 µM |